# Earlier results in publication PMC7915867, “Discovery of a Small Molecule Inhibitor of Human Adenovirus Capable of Preventing Escape from the Endosome” (International Journal of Molecular Sciences, 2021).
# Test system: HAdV5-GFP
# Conditions: ratio CC50 / IC50; cited from earlier work
compound,measurement,value
O=C(Nc1cc(F)cc(C(F)(F)F)c1)c1cc(Cl)ccc1O [Compound 4],selectivity index (SI),666.7
CC1(Nc2ccc(NC(=O)c3cc(Cl)ccc3O)c(Cl)c2)CCCC1 [Compound 5],selectivity index (SI),580.7
CC(C)C(NC(=O)c1cc(Cl)ccc1O)C(=O)Nc1ccc([N+](=O)[O-])cc1Cl (stereo not drawn) [Compound 6],selectivity index (SI),444.4
